# Values from PubChem BioAssay AID1259414 (Drosophila RNAi Screening Center, 2018)
# Purpose: 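Host factors increasing or decreasing Wolbachia levels in cultured fly cells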 (primary screen)
# Cell system: Drosophila JW18 cells infected with Wolbachia
# Reagent: long dsRNA against Drosophila genes, 0.25 µg dsRNA per well of a 384-well plate
# Time to read-out: 5 days
# Conditions: cells persistently infected with Wolbachia before knock-down; no added drug
# Measurement: 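Imaged fluorescence in situ signal for Wolbachia 23S rRNA per DAPI-counted host cell, given as a robust z-score within each plate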
# Scale: Wolbachia per cell robust z: higher = more Wolbachia per host cell than the plate typical
# Hit rule: 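Hit when robust z is 1.5 or more, or -1.5 or less, in at least two of three replicates; excludes dsRNAs with several or no targets, genes not expressed in JW18 and well A1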
# The screen tested about 24,000 reagents; shown is a random part of those with a known target gene and a result. In the full data, about 1,210 (5%) are marked active. 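Inactive calls also include excluded dsRNAs with several or no targets, genes unexpressed in JW18, and well A1, regardless of score.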 Names joined by + are all predicted targets of the reagent.
target,DRSC id,"Wolbachia per cell robust z, rep 1","Wolbachia per cell robust z, rep 2","Wolbachia per cell robust z, rep 3",call
Polr3B,DRSC07536,2.21,0.265,0.663,inactive
CngB,DRSC04297,-7.03,-0.817,0.432,inactive
CG5746,DRSC15868,-0.429,-4.05,-0.47,inactive
CG5746,DRSC25452,-10.5,-1.16,-0.921,inactive
CG2604,DRSC12313,0.94,0.0786,0.812,inactive
CG2604,DRSC29919,-0.859,-1.08,-8.85,inactive
Nup93-1,DRSC19344,0.341,-0.253,-0.76,inactive
ppk30,DRSC15302,-1.37,0.697,0.0674,inactive
wkd,DRSC15777,1.08,-1.35,0.115,inactive
CG8300,DRSC23231,1.3,1.37,0.712,inactive
CG8300,DRSC29869,0.0243,0.809,0.257,inactive
Tusp,DRSC15838,0.495,-3.62,0.169,inactive
Lamtor1,DRSC10183,0.221,-0.557,0.536,inactive
insv,DRSC00579,0.297,-0.214,-0.156,inactive
insv,DRSC28219,1.96,-13.6,-1.33,inactive
CG5023,DRSC15697,-1,0.0253,-1.66,inactive
CG2698,DRSC15447,0.304,-7.06,0.398,inactive
SoYb,DRSC02901,0.434,0.776,0.516,inactive
Aplip1,DRSC08697,0.738,-2.83,-1.62,active
Aplip1,DRSC21587,-2.7,-0.199,-1.76,active
Aplip1,DRSC26312,-0.153,-0.435,1.27,inactive
RanBPM,DRSC06079,-0.485,0.412,0.093,inactive
RanBPM,DRSC25174,-0.308,-0.439,-0.242,inactive
Atg13,DRSC16228,-4.22,0.58,1.09,inactive
CG43668 + CG43667 + CG43666,DRSC04233,-4.58,1.32,0.836,inactive
Or59b,DRSC04632,-0.323,0.266,0.0145,inactive
CG8142,DRSC20086,0.633,0.505,0.665,inactive
CG8142,DRSC26373,0.399,-0.0587,-0.634,inactive
CG7634,DRSC11843,-3.77,0.833,-0.537,inactive
cno,DRSC12054,0.0851,-0.934,0.372,inactive
cno,DRSC22980,-1.05,-1.17,-0.131,inactive
cno,DRSC25770,0.591,0.688,1.14,inactive
cno,DRSC28027,-0.714,-0.173,-2.09,inactive
cno,DRSC40806,0.617,-0.0055,-1.92,inactive
CG43428,DRSC06205,-0.0411,-1.24,0.294,inactive
CG43428,DRSC25601,0.312,-0.679,0.573,inactive
dy,DRSC20325,-0.259,0.327,0.0563,inactive
dy,DRSC25539,1.02,0.604,-0.548,inactive
CG33346,DRSC22898,-0.196,-0.627,-1.42,inactive
CG15385,DRSC00399,0.541,0.207,-3.64,inactive
CG13999,DRSC02331,0.0351,-1.34,0.37,inactive
CG13999,DRSC29521,-1.04,0.0107,-2.15,inactive
Muc68Ca,DRSC10312,0.823,-1.35,-0.568,inactive
Muc68Ca,DRSC10313,0.537,0.0276,0.897,inactive
Osi17,DRSC12284,-5.69,1.49,1.13,inactive
Galt,DRSC03161,0.315,-0.73,0.544,inactive

Quoted from the entries so far for reference:
target,DRSC id,"Wolbachia per cell robust z, rep 1","Wolbachia per cell robust z, rep 2","Wolbachia per cell robust z, rep 3",call
cno,DRSC22980,-1.05,-1.17,-0.131,inactive
cno,DRSC25770,0.591,0.688,1.14,inactive
cno,DRSC28027,-0.714,-0.173,-2.09,inactive
cno,DRSC40806,0.617,-0.0055,-1.92,inactive
